Results of unrelated studies side by side (data: NIAID ChemDB).

All rows: growth or infection tests; species: Herpes simplex virus 1; method: cytopathic effect; read-out: EC50

Neighbouring rows are from separate reports.

structure | strain or isolate | cells | result
CCc1cn([C@H]2C[C@H](O)[C@@H](CO)O2)c(N)nc1=O | KOS | PRK | >400 µg/mL
CCc1cn([C@H]2C[C@H](O)[C@@H](COP(=O)(O)O)O2)c(=O)[nH]c1=O | B2006 (TK-) | HEP-2 | >820 µg/mL
[N-]=[N+]=N[C@@H]1[C@@H](OP(=O)(O)OC[C@H]2O[C@@H](n3cnc4c(N)ncnc43)[C@H](OP(=O)(O)OCCOCn3cnc4c(=O)[nH]c(N)nc43)[C@H]2N=[N+]=[N-])[C@H](n2cnc3c(N)ncnc32)O[C@@H]1CO | VMW1837 (TK-) | PRK | 70 µg/mL
O=c1[nH]c(=O)n([C@H]2C[C@H](O)[C@@H](CO)O2)cc1/C=C/Br | McIntyre | PRK | 0.02 µg/mL
OC[C@H]1O[C@@H](c2cc(/C=C/I)c(F)cc2F)C[C@@H]1O | KOS | E6SM | 48 µg/mL
O=C(CI)NCc1cn([C@H]2C[C@H](O)[C@@H](CO)O2)c(=O)[nH]c1=O | KOS | HSF | >200 µg/mL
O=c1[nH]c(=O)n([C@H]2C[C@H](O)[C@@H](CO)O2)cc1F | F | PRK | 10 µg/mL
CCCc1cn([C@H]2C[C@H](O)[C@@H](COP(=O)(O)O)O2)c(=O)[nH]c1=O | KOS | BSC-1 | 20 µg/mL
O=c1[nH]c(=O)n([C@H]2C[C@H](O)[C@@H](CO)O2)cc1I | KOS | T-21 | 0.08 µg/mL
Nc1nc2c(ncn2COCCO)c(=O)[nH]1 | X17626 (acyclovir-susceptible) | HFF | 1 µg/mL
Cc1cc([C@H]2C[C@H](O)[C@@H](CO)O2)c(F)cc1Cl | KOS | E6SM | >400 µg/mL
O=c1[nH]c(=O)n([C@H]2C[C@H](O)[C@@H](CO)O2)cc1/C=C/Br | KOS | HeLa | 0.02 µg/mL
CCc1cc([C@H]2C[C@H](O)[C@@H](CO)O2)c(F)cc1F | VMW1837 (TK-) | E6SM | >400 µg/mL
Nc1nc(=O)n([C@@H]2O[C@H](CO)[C@@H](O)[C@@H]2F)cc1I | KOS | HeLa | 0.07 µg/mL
Cc1cc([C@@H]2C[C@H](O)[C@@H](CO)O2)c(Cl)cc1F | KOS | E6SM | >400 µg/mL
Nc1ccn([C@@H]2O[C@H](CO)[C@@H](O)[C@@H]2O)c(=O)n1 | KOS | BALB/3T3 | 0.2 µg/mL
OC[C@H]1O[C@@H](c2ccc(F)cc2F)C[C@@H]1O | McIntyre | E6SM | >400 µg/mL
O=c1[nH]c(=O)n([C@H]2C[C@H](O)[C@@H](CO)O2)cc1I | VEX538 | PRK | 0.1 µg/mL
OC[C@H]1O[C@@H](c2cc(/C=C/Br)c(F)cc2F)C[C@@H]1O | McIntyre | E6SM | >400 µg/mL
CSCc1cn([C@H]2C[C@H](O)[C@@H](CO)O2)c(=O)[nH]c1=O | F | PRK | 10 µg/mL
COC(=N)[C@]1(n2cc(C)c(=O)[nH]c2=O)C[C@H](O)[C@@H](CO)S1 |  | HEL | 100 µg/mL
O=Cc1cn([C@H]2C[C@H](O)[C@@H](CO)O2)c(=O)[nH]c1=O | VDO374 | PRK | 0.4 µg/mL
OC[C@H]1O[C@@H](c2cc(Br)c(F)cc2F)C[C@@H]1O | VMW 1837 | E6SM | >400 µg/mL
O=c1[nH]c(=O)n([C@@H]2O[C@H](CO)[C@@H](O)[C@@H]2O)cc1/C=C/Br | KOS | T-21 | 0.01 µg/mL

The last 2 rows once more:

structure	strain or isolate	cells	result
OC[C@H]1O[C@@H](c2cc(Br)c(F)cc2F)C[C@@H]1O	VMW 1837	E6SM	>400 µg/mL
O=c1[nH]c(=O)n([C@@H]2O[C@H](CO)[C@@H](O)[C@@H]2O)cc1/C=C/Br	KOS	T-21	0.01 µg/mL

Blank or dashed fields: not listed here. ECn is the concentration giving n% inhibition of infection, replication or growth.